In patent US20240398757A1 (COCRYSTAL PHARMA, INC., priority 2022, published 2024):
pIC50: −log10 of the molar value. Structures were worked out from names or drawings and are uncertain.

Target: SARS2 protease (Severe acute respiratory syndrome coronavirus 2, UniProt P0DTD1)
Experiment: SARS-CoV-2 protease inhibition assay (SARS2 FRET protease assay)
Conditions: SARS2 protease 30 nM, peptide substrate 1.3 μM, 120 minutes at 37° C., compounds 20 μM to 0.075 nM
Experimental: Viral protease assays: The antiviral activities of inhibitors were determined by FRET (Fluorescence Resonance Energy Transfer) assay. Purified viral protease was incubated with the protease substrate peptide (Edans-DFHLQ/GP-Dabcyl) and inhibitor, and IC50 values were subsequently determined by the fluorescence signals.
The SARS2 FRET protease assay was performed in 20 mM HEPES-Na pH 7, 120 mM NaCl, 0.4 mM EDTA, 0.01% Triton, 5% glycerol, and 4 mM DTT. A self-quenching peptide substrate 5-FAM-TSA VLQ SGF RKK (STAMRA)-NH2 was custom synthesized by Anaspec. Compounds were diluted in 4-fold serial dilutions to final concentrations of 20 μM to 0.075 nM. SARS2 protease was added to a final concentration of 30 nM, depending on the enzyme activity level, and the peptide substrate was added to a final concentration of 1.3 μM. The assay was incubated 120 minutes at 37° C. and read in a Perkin Elmer Envision with excitation at 492 nm and emission measurement at 518 nm.

CCCC[C@H](NC(=O)OC(c1cccnc1)C(F)(F)c1cccc(Cl)c1)C(=O)N[C@H](C=O)C[C@@H]1CCNC1=O (stereo partly shown)
pIC50: 9.40
